A mixed list of measured activities; the numbers were collected in NIAID ChemDB.

Common to all: growth or infection tests; organism: Candida albicans; measure: zone

Conditions beyond the fields shown may differ between rows.

structure	method	strain	tested at	value
N#Cc1c(-c2ccccc2)csc1NC(=O)C1C=CC(c2ccccc2)=NC1=O	agar diffusion / agar	-	1000 µg/mL	0 mm
COc1ccc(C=NNC(=O)c2snnc2C(F)(F)F)cc1	agar diffusion / agar	MTCC 227	150 µg/mL	0 mm
COc1cccc(-c2nnc(CN3CCC(n4nc5ccccc5n4)CC3)o2)c1	-	-	900 µg/mL	9.86 mm
CSC1=NC(c2ccccc2Cl)C(C#N)=C(N)N1	agar diffusion	MTCC 227	100 µg/mL	20 mm
COc1ccc(Cc2ccc(OC)c(-c3nnc4sc(-c5cccc([N+](=O)[O-])c5)nn34)c2)cc1-c1nnc2sc(-c3cccc([N+](=O)[O-])c3)nn12	agar diffusion / agar	ATCC 10231	100 µg/disc	11 mm
c1ccc(CSc2nnc(C34CC5CC(CC(C5)C3)C4)n2-c2ccccc2)cc1	agar diffusion	IFO 0583	200 µg/disc	<10 mm
O=[N+]([O-])c1ccc(-c2nnc(CN3CCC(n4nc5ccccc5n4)CC3)o2)cc1Cl	-	-	600 µg/mL	6.25 mm
CSC1=NC(c2cccc([N+](=O)[O-])c2)C(C#N)=C(N)N1	agar diffusion	MTCC 227	100 µg/mL	19 mm
Cn1c(=O)c(-c2[nH][nH]c(=O)c2N=Nc2ccc(N)cc2)c(O)c2ccccc21	agar diffusion	ATCC 10231	1 mg/mL	13 mm
Oc1ccc(/C=N/n2c(C34CC5CC(CC(C5)C3)C4)n[nH]c2=S)cc1	agar diffusion	IFO 3007	200 µg/disc	<10 mm
C/C=C/C1=CC2=CC(=O)[C@](C)(OC(=O)c3c(OC)cc(O)c(O)c3C)C(=O)C2=CO1	agar diffusion	ATCC 64548	20 µg/disc	0 mm
CCOC(=O)C1CCN(Cn2nc(C34CC5CC(CC(C5)C3)C4)n(/N=C/c3ccc(O)cc3)c2=S)CC1	agar diffusion	IFO 3007	200 µg/disc	19 mm
C#Cc1c(-c2ccc(OC)cc2)c(C#N)c2nc(=O)c3c(-c4ccc(Cl)cc4)csc3n2c1N	agar diffusion / agar	-	1000 µg/mL	0 mm
CC(=O)N1CCN(c2nc(Nc3ccc(C#N)c(C(F)(F)F)c3)nc(Oc3cccc4cccnc34)n2)CC1	agar diffusion / agar	MTCC 183	100 µg/disc	19 mm
O=c1oc2ccccc2cc1-c1nnc(/N=C/c2ccccc2)o1	agar diffusion	ATCC 10231	100 µg/mL	12 mm
O=C(NN=Cc1ccc(Cl)cc1)c1snnc1C(F)(F)F	agar diffusion / agar	MTCC 227	100 µg/mL	0 mm
Cc1cc(=O)n(-c2ccc(N=Nc3c(-c4c(O)c5ccccc5n(C)c4=O)[nH][nH]c3=O)cc2)n1C	agar diffusion	ATCC 10231	1 mg/mL	10 mm
C=CC(C)(C)c1cc(C2CC(=O)c3c(cc(O)c(CC=C(C)C)c3O)O2)c(O)cc1O	agar diffusion / agar	hemoculture isolate 37203	2 mg/mL	12 mm
CCOC(=O)C1CCN(Cn2nc(C34CC5CC(CC(C5)C3)C4)n(/N=C/c3c(Cl)cccc3Cl)c2=S)CC1	agar diffusion	IFO 3007	200 µg/disc	<10 mm
N#CCC(=O)Nc1scc(-c2ccccc2)c1C#N	agar diffusion / agar	-	1000 µg/mL	4 mm
CCN(CC)CCn1nc(C23CC4CC(CC(C4)C2)C3)n(C)c1=S	agar diffusion	IFO 0583	200 µg/disc	<10 mm
COc1ccc(Cc2ccc(OC)c(-c3nnc4sc(-c5ccc(C)cc5)nn34)c2)cc1-c1nnc2sc(-c3ccc(C)cc3)nn12	agar diffusion / agar	ATCC 10231	100 µg/disc	12 mm
N#CCC(=O)Nc1scc(-c2ccc(Cl)cc2)c1C#N	agar diffusion / agar	-	1000 µg/mL	0 mm
Cn1c(=O)c(-c2[nH][nH]c(=O)c2N=Nc2ccc(Br)cc2)c(O)c2ccccc21	agar diffusion	ATCC 10231	1 mg/mL	8 mm
Cc1ccc(C(C)C)c(O)c1	agar diffusion	AI	100 µg/mL	5 mm
CN1CCN(Cn2nc(C34CC5CC(CC(C5)C3)C4)n(/N=C/c3c(Cl)cccc3Cl)c2=S)CC1	agar diffusion	IFO 3007	200 µg/disc	<10 mm
C#C/C(=C\N(C)C)C(=O)Nc1scc(-c2ccc(Cl)cc2)c1C#N	agar diffusion / agar	-	1000 µg/mL	0 mm
CSC1=NC(c2ccccc2O)C(C#N)=C(N)N1	agar diffusion	MTCC 227	100 µg/mL	19 mm
CC(C)(C)c1cc(-c2nnc(CN3CCC(n4nc5ccccc5n4)CC3)o2)cc(C(C)(C)C)c1	-	-	900 µg/mL	15.04 mm
CSC1=NC(c2ccc(Cl)cc2)C(C#N)=C(N)N1	agar diffusion	MTCC 227	25 µg/mL	18 mm
O=[N+]([O-])c1ccc(/C=N/n2c(C34CC5CC(CC(C5)C3)C4)n[nH]c2=S)cc1	agar diffusion	IFO 3007	200 µg/disc	<10 mm
O=C1CC(c2ccccc2)CC2=C1C(c1ccc(C3C4=C(CC(c5ccccc5)CC4=O)OC4=C3C(=O)CC(c3ccccc3)C4)cc1)C1=C(CC(c3ccccc3)CC1=O)O2	agar diffusion	ATCC 10231	20 µg/disc	7 mm
Cc1nc2ccccc2n(CC(=O)NN2C(=O)CSC2c2ccccc2Cl)c1=O	-	-	50 µg/mL	7 mm
COc1ccc(/C=C/c2nc3ccc(Cl)cc3[nH]2)c(OC)c1OC	-	-	25 µg/mL	12.46 mm
CSC1=NC(/C=C/c2ccccc2)C(C#N)=C(N)N1	agar diffusion	MTCC 227	25 µg/mL	17 mm
N#Cc1ccc(Nc2nc(Oc3cccc4cccnc34)nc(N3CCN(c4cccc(Cl)c4Cl)CC3)n2)cc1C(F)(F)F	agar diffusion / agar	MTCC 183	100 µg/disc	25 mm
COc1ccc(C2=NN(C=O)C(c3cc(OC)c(OC)c(OC)c3)C2)cc1OC	agar diffusion / agar	DSM 70014	1 mg/mL	16 mm
CC(=NNC(=O)c1snnc1C(F)(F)F)c1ccc([N+](=O)[O-])cc1	agar diffusion / agar	MTCC 227	150 µg/mL	0 mm
C[C@@H]1[C@H](O)[C@@H](C)/C=C/C=C/C=C/C=C/C=C/C=C/C=C/[C@H](O[C@@H]2O[C@H](C)[C@@H](O)[C@H](N)[C@@H]2O)C[C@@H]2O[C@](O)(C[C@@H](O)C[C@@H](O)[C@H](O)CC[C@@H](O)C[C@@H](O)CC(=O)O[C@H]1C)C[C@H](O)[C@H]2C(=O)O	agar diffusion / agar	ATCC 10231	100 µg/disc	30 mm
Fc1ccc(N2CCN(Cn3nc(C45CC6CC(CC(C6)C4)C5)n(/N=C/c4c(Cl)cccc4Cl)c3=S)CC2)cc1	agar diffusion	IFO 3007	200 µg/disc	<10 mm
CCN1CCN(c2nc(Nc3ccc(C#N)c(C(F)(F)F)c3)nc(Oc3cccc4cccnc34)n2)CC1	agar diffusion / agar	MTCC 183	100 µg/disc	21 mm
OC(Cn1cncn1)(Cn1cncn1)c1ccc(F)cc1F	-	-	25 µg/mL	13.38 mm
CC1(C)CC(=O)C2=C(C1)OC1=C(C(=O)CC(C)(C)C1)C2c1cccc(C2C3=C(CC(C)(C)CC3=O)OC3=C2C(=O)CC(C)(C)C3)c1	agar diffusion	ATCC 10231	20 µg/disc	0 mm
CC(=O)N1CCN(c2ccc(OC[C@H]3CO[C@](Cn4ccnc4)(c4ccc(Cl)cc4Cl)O3)cc2)CC1	agar diffusion	C-3	20 mg/mL	12 mm
COc1ccc(C2CC(=O)C3=C(C2)OC2=C(C(=O)CC(c4ccc(OC)c(OC)c4)C2)C3c2cccc(C3C4=C(CC(c5ccc(OC)c(OC)c5)CC4=O)OC4=C3C(=O)CC(c3ccc(OC)c(OC)c3)C4)c2)cc1OC	agar diffusion	ATCC 10231	40 µg/disc	7 mm
O=C(NN=Cc1ccccc1)c1snnc1C(F)(F)F	agar diffusion / agar	MTCC 227	150 µg/mL	12 mm
Clc1ccc2nc(/C=C/c3ccccc3)[nH]c2c1	-	-	25 µg/mL	11.84 mm
C#Cc1c(-c2ccccc2)csc1NC(=O)/C(C#N)=N/Nc1ccccc1	agar diffusion / agar	-	1000 µg/mL	0 mm
N#Cc1ccc(Nc2nc(Oc3cccc4cccnc34)nc(N3CCN(c4ncccn4)CC3)n2)cc1C(F)(F)F	agar diffusion / agar	MTCC 183	100 µg/disc	26 mm
Cc1nc2ccccc2n(CC(=O)NN2C(=O)CSC2c2ccc(N(C)C)cc2)c1=O	-	-	50 µg/mL	14 mm
COc1ccccc1/C=c1\c(=O)[nH][nH]\c1=C1/C(=O)c2ccccc2N(C)C1=O	agar diffusion	ATCC 10231	1 mg/mL	13 mm
COc1ccc(NC(=O)CSC2NC(c3ccc(OC)c(OC)c3)=CC(c3cc(OC)c(OC)c(OC)c3)N2)cc1	agar diffusion / agar	DSM 70014	1 mg/mL	14 mm
Cc1ccc(-c2nnc(CN3CCC(n4nc5ccccc5n4)CC3)o2)cc1Br	-	-	300 µg/mL	3.23 mm
O=C1CCCC2=C1C(c1cccc(C3C4=C(CCCC4=O)OC4=C3C(=O)CCC4)c1)C1=C(CCCC1=O)O2	agar diffusion	ATCC 10231	20 µg/disc	0 mm
Cc1nc2ccccc2n(CC(=O)NN2C(=O)CSC2c2ccc(Cl)cc2)c1=O	-	-	100 µg/mL	21 mm
O=C1CCCC2=C1C(c1ccc(C3C4=C(CCCC4=O)OC4=C3C(=O)CCC4)cc1)C1=C(CCCC1=O)O2	agar diffusion	ATCC 10231	40 µg/disc	8 mm
COc1ccc(C2=CC(c3cc(OC)c(OC)c(OC)c3)N3C(=O)CSC3=N2)cc1OC	agar diffusion / agar	DSM 70014	1 mg/mL	14 mm
O=c1oc2ccccc2cc1-c1nnc(/N=C/c2ccc(F)cc2)o1	agar diffusion	ATCC 10231	100 µg/mL	10 mm
COc1ccc(Cc2ccc(OC)c(-c3nnc4sc(-c5ccccc5)nn34)c2)cc1-c1nnc2sc(-c3ccccc3)nn12	agar diffusion / agar	ATCC 10231	100 µg/disc	10 mm
Cc1ccc(O)c(O)c1O	-	-	50 µg/mL	12 mm
O=C(NN=Cc1ccco1)c1snnc1C(F)(F)F	agar diffusion / agar	MTCC 227	150 µg/mL	0 mm
Cn1c(C23CC4CC(CC(C4)C2)C3)nn(CCN2CCCCC2)c1=S	agar diffusion	IFO 0583	200 µg/disc	<10 mm
O=c1oc2ccccc2cc1-c1nnc(/N=C/c2cccc(Cl)c2)o1	agar diffusion	ATCC 10231	100 µg/mL	14 mm
O=C(NN=Cc1ccc(F)cc1)c1snnc1C(F)(F)F	agar diffusion / agar	MTCC 227	150 µg/mL	0 mm
COc1ccc(/C=c2\sc3n(c2=O)C(c2cc(OC)c(OC)c(OC)c2)C=C(c2ccc(OC)c(OC)c2)N=3)cc1OC	agar diffusion / agar	DSM 70014	1 mg/mL	17 mm
Cn1c(=O)c(-c2[nH][nH]c(=O)c2N=Nc2ccccc2Br)c(O)c2ccccc21	agar diffusion	ATCC 10231	1 mg/mL	11 mm
CC(=O)N1CCN(c2ccc(OC[C@H]3CO[C@](Cn4ccnc4)(c4ccc(Cl)cc4Cl)O3)cc2)CC1	agar diffusion	ATCC 10231	100 µg/mL	10 mm
COc1cc(C2CC(c3ccc4c(c3)OCO4)=NN2C(C)=O)cc(OC)c1OC	agar diffusion / agar	DSM 70014	1 mg/mL	15 mm
Clc1ccccc1C(c1ccccc1)(c1ccccc1)n1ccnc1	agar diffusion	IFO 0583	100 µg/disc	21 mm
Cn1c(=O)c(-c2[nH][nH]c(=O)c2N=Nc2ccc(Cl)cc2)c(O)c2ccccc21	agar diffusion	ATCC 10231	1 mg/mL	12 mm
CCOC(=O)C1CCN(Cn2nc(C34CC5CC(CC(C5)C3)C4)n(/N=C/c3ccc(Cl)c(Cl)c3)c2=S)CC1	agar diffusion	IFO 3007	200 µg/disc	<10 mm
Cc1nc2ccccc2n(CC(=O)NN2C(=O)CSC2c2ccc(C(F)(F)F)cc2)c1=O	-	-	100 µg/mL	24 mm
O=C(NN=Cc1ccc([N+](=O)[O-])cc1)c1snnc1C(F)(F)F	agar diffusion / agar	MTCC 227	100 µg/mL	0 mm
C#Cc1c(-c2ccc([N+](=O)[O-])cc2)c(C#N)c2nc(=O)c3c(-c4ccc(Cl)cc4)csc3n2c1N	agar diffusion / agar	-	1000 µg/mL	2.6 mm

The last 9 rows once more:

structure | method | strain | tested at | value
Cn1c(=O)c(-c2[nH][nH]c(=O)c2N=Nc2ccccc2Br)c(O)c2ccccc21 | agar diffusion | ATCC 10231 | 1 mg/mL | 11 mm
CC(=O)N1CCN(c2ccc(OC[C@H]3CO[C@](Cn4ccnc4)(c4ccc(Cl)cc4Cl)O3)cc2)CC1 | agar diffusion | ATCC 10231 | 100 µg/mL | 10 mm
COc1cc(C2CC(c3ccc4c(c3)OCO4)=NN2C(C)=O)cc(OC)c1OC | agar diffusion / agar | DSM 70014 | 1 mg/mL | 15 mm
Clc1ccccc1C(c1ccccc1)(c1ccccc1)n1ccnc1 | agar diffusion | IFO 0583 | 100 µg/disc | 21 mm
Cn1c(=O)c(-c2[nH][nH]c(=O)c2N=Nc2ccc(Cl)cc2)c(O)c2ccccc21 | agar diffusion | ATCC 10231 | 1 mg/mL | 12 mm
CCOC(=O)C1CCN(Cn2nc(C34CC5CC(CC(C5)C3)C4)n(/N=C/c3ccc(Cl)c(Cl)c3)c2=S)CC1 | agar diffusion | IFO 3007 | 200 µg/disc | <10 mm
Cc1nc2ccccc2n(CC(=O)NN2C(=O)CSC2c2ccc(C(F)(F)F)cc2)c1=O | - | - | 100 µg/mL | 24 mm
O=C(NN=Cc1ccc([N+](=O)[O-])cc1)c1snnc1C(F)(F)F | agar diffusion / agar | MTCC 227 | 100 µg/mL | 0 mm
C#Cc1c(-c2ccc([N+](=O)[O-])cc2)c(C#N)c2nc(=O)c3c(-c4ccc(Cl)cc4)csc3n2c1N | agar diffusion / agar | - | 1000 µg/mL | 2.6 mm

Blank or dashed fields: not listed here. Zones are inhibition diameters on agar.